# Assay results taken from PubChem BioAssay AID1117359 (Southern Research Institute, 2015).
# The list shows a part of the results, in another mix than the full data. Potency and affinity values are given separately. Calls of active or inactive are those of the source.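 Rule for the calls: active = viability at or below 80% at any tested concentration, marking the compound as toxic; inactive = the rest.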
# Assay: THP-1 cell cytotoxicity, dose response, cytotoxicity control for Vif-APOBEC3G degradation inhibitor project, THP-1 cells (AID 1117359)
# Conditions: THP-1 viability, CellTiter-Glo luminescence, 72 h; at 40 µM (top of the series)
row,Compound,viability
1,Oc1ccc(/C=N/NC(=S)Nc2cccnc2)c(O)c1O,inactive: 104%
